## Results of single-concentration screens

The filed quantity is “Percent Effect” (%).
The controls that fix the scale are not given in the record; negative values are as filed.
This is part of a subset picked to be rich in strong results.

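Growth of Mycobacterium tuberculosis over 3 days (7H9 medium with glucose and tyloxapol); the read-out is not stated. Concentration: 500 µM. The record gives no direction; compounds that gave an IC50 in retests scored well above the rest, so higher reads as more growth inhibition. About 18,000 compounds were tested under these conditions; 7.9% (about 1,400) showed 50% or more at least once.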

compound	percent effect
c1cnc(N2CCCC2)c(NC2CCNCC2)c1	-8.25%
CCNC(=O)c1ccn(-c2ccccc2)n1	56.98%
COc1cc(CNC(=O)NCC(F)(F)F)ccn1	26.08%
CN(C)C(CNC(=O)c1ccncc1)c1ccco1 (centres unmarked)	20.11%
CN1CCC(=O)CC1c1ccccc1 (centres unmarked)	-76.49%
Cc1ccc(S(=O)(=O)NCCN)cc1Cl	49.45%
Cc1c(C(=O)NCC2CC2)cnn1C	44.6%
CC(=O)c1cc(CN2CCCC2c2nc(C)n[nH]2)cs1 (centres unmarked)	2.568%
CC(=O)c1cc(C(=O)NCc2cnc(C)cn2)cs1	6.453%
Cc1n[nH]c(SCC(=O)NC[C@H]2CCCN2)n1	-2.26%
CCN1CCCC1CNS(=O)(=O)c1cn(C(C)C)cn1 (centres unmarked)	6.725%
CN(C)C(=O)CN1CCC(CN)CC1	-1.532%
COc1ccc(C(=O)NC2=NCCS2)c(O)c1	72.49%
O=C(N[C@@H]1COCC[C@H]1O)C1(CO)CC1	2.379%
Nc1[nH]nc(C(=O)N2CC(N3CCCCC3)C2)c1Cl	-0.6228%
COc1ccc(OC)c(CCN)c1	22.62%
CC(Sc1nnc[nH]1)C(=O)Nc1ccc(C#N)cc1 (centres unmarked)	50.35%
Cc1nnc(CCNC(=O)CSc2nnc(N)s2)s1	10.07%
CCN1CC(NC(=O)CCc2cccnc2)CC1=O (centres unmarked)	5.927%
NCCNS(=O)(=O)c1ccc(F)cc1C(F)(F)F	-10.88%
NCc1cnc(-c2ccccc2)nc1	21.89%
COc1ccc(CNC2CCN(C(C)=O)CC2)cc1	8.674%
COc1ccnc(CN2CCCCC(N)C2)c1OC (centres unmarked)	13.44%
Cc1cc(C)n2nc(C(=O)N3CCSCC3)nc2n1	3.503%
COC1CCN(CC(=O)Nc2ccc(C(N)=O)cc2)C1 (centres unmarked)	6.711%
CNc1nc(NCCS(C)(=O)=O)ncc1Br	50.28%
Cc1ccc(C(=O)NCc2ccc3c(c2)OCCO3)o1	76.36%
NC(=O)c1ccc(S(N)(=O)=O)cc1	39.3%
COCc1nn(CCCN2CCCCC2)c(=O)o1	-4.28%
CC(N)C(=O)Nc1cccc(N2CCCC2)c1 (centres unmarked)	43.94%
COCCNC(=O)COc1ccc2c(c1)OCO2	53.75%
CNCC(=O)Nc1ccccc1OC	2.816%
CSc1ncc(C(=O)N2CC[C@](C)(O)[C@H](C)C2)cn1	-4.927%
CC(C)C(Nc1ccncc1Cl)C(=O)N1CCOCC1 (centres unmarked)	1.369%
CCC(CC)(CN)C(=O)N1CCN(C(=O)N(C)C)CC1	-2.938%
Cn1cnc(S(=O)(=O)NCC(N)c2ccccc2)c1Cl (centres unmarked)	35.88%
CCCn1cnnc1C(C)NC(=O)c1cnc(O)cn1 (centres unmarked)	-12.68%
COCc1nnc(N)s1	6.122%
CN1CCCN(C(=O)COc2ccccc2)CC1	12.03%
CCCNC(=O)c1cc(Br)c[nH]1	52.28%
CCn1ncnc1C(NC(=O)CSC)C1CC1 (centres unmarked)	-0.6479%
CN1CCCN(C(=O)c2cc3ccccc3[nH]2)CC1	15.14%
COC(=O)c1ccc(OCC(N)=O)c(Br)c1	-7.035%
COCCN(CCOC)Cc1cc(-c2ccco2)on1	46.03%
CC(C(=O)N1CCCC1)N(C)CCN1CCCC1 (centres unmarked)	-0.3035%
O=C(Cn1ccc(C(F)(F)F)n1)NCc1ccco1	53.4%
NCc1ccccc1CN1CCC(O)CC1	-11.64%
O=C(OCC(F)(F)F)c1cccnc1	-10.78%
NCC1CCC2(CCCCC2)O1 (centres unmarked)	11.64%
Nc1ncnc(N2CCC(CO)CC2)c1Cl	4.005%
CC(N)CCS(C)(=O)=O (centres unmarked)	6.547%
CN1CCCN(C(=O)c2cc(C3CC3)on2)CC1	16.93%
CN(C)CCCOc1ccc(CN)cc1	23.84%
Cc1cccnc1CSc1nnnn1CC1CCCO1 (centres unmarked)	36.95%
N#Cc1ccc(-n2nccc2N)cc1	11.15%
C1CCC(NC2CCNCC2)C1	-1.737%
CSCCCN1CCN(c2cccnc2)CC1	13.42%
Cc1ccc(C(=O)N2CCC(C(C)O)CC2)c(O)c1 (centres unmarked)	11.43%
CC(c1nc(COc2ccc(F)cc2)no1)S(C)(=O)=O (centres unmarked)	55.73%
Cc1cc(C(=O)N2CCC(O)(CN(C)C)C2)cc(C)n1 (centres unmarked)	8.62%
CNC(=O)COc1cccc(OCC2CC2)c1	62.2%
CCC(CO)Nc1ncc(C(F)(F)F)cc1Cl (centres unmarked)	49.42%
NC(=O)c1ccc(=O)n(Cc2ccc(Br)s2)n1	42.88%
COCCC1CN(C(=O)c2nc(C)c[nH]2)CCO1 (centres unmarked)	27.41%
COc1ccc(CCN)c(O)c1	74.96%
CN(C(=O)OC(C)(C)C)C1CCNC1 (centres unmarked)	12.36%
CCc1cc(C(=O)NCC(=O)C(C)C)[nH]n1	-2.047%
Cn1cnnc1CNC(=O)c1sccc1OC(F)F	3.002%
Cc1noc(-c2ccc(C(N)=O)cc2)n1	-3.39%
Cc1[nH]nc(C(N)=O)c1NC(=O)c1cc(F)cc(Br)c1	21.37%
COc1cc(F)ccc1C(C)N (centres unmarked)	7.625%
CC(C)NC(=O)CSc1nc(C=Cc2cccs2)n[nH]1	85.58%
O=C(CO)N1CCCC(CCc2ccccc2F)C1 (centres unmarked)	62.66%

Some entries from above, unchanged:

For Cc1[nH]nc(C(N)=O)c1NC(=O)c1cc(F)cc(Br)c1 the result was 21.37%.
For Cc1c(C(=O)NCC2CC2)cnn1C the result was 44.6%.
For Cc1cc(C(=O)N2CCC(O)(CN(C)C)C2)cc(C)n1 (centres unmarked) the result was 8.62%.
For CC(Sc1nnc[nH]1)C(=O)Nc1ccc(C#N)cc1 (centres unmarked) the result was 50.35%.
For COc1cc(F)ccc1C(C)N (centres unmarked) the result was 7.625%.
For COCc1nnc(N)s1 the result was 6.122%.

Measurements from “University of Dundee, Small-Polar-MMV Screening Library” (2021), ChEMBL document CHEMBL3988442.